The results in this text go back to the supplement of paper PMC9931576.

Human monoclonal antibodies against the spike receptor-binding domain (heavy:light variable regions). IC50 against pseudoviruses bearing the spike of naturally observed variants; lower = stronger; >10 µg/ml means not reached at the top dose. No active / inactive call. The stated detection limit is 0.0005 µg/ml; values near or below 0.001 µg/ml lie at the floor of the assay. Some results are limits rather than exact numbers.

Experiment in all cases: pseudovirus neutralization IC50; higher = weaker neutralization
Assay [1] concerns the target SARS-CoV-2 Omicron BA.1 spike pseudovirus. As for the experimental part:
(§1)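 Single-round VSV luciferase pseudovirus mixed with antibody dilutions for 1 h and put on Huh-7 cells for about a day; IC50 from the dose curve.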

The target in assay [2] is SARS-CoV-2 Omicron BA.2 spike pseudovirus. As for the experimental part:
as §1

Assay [3] has as its target SARS-CoV-2 Omicron BA.2.75 spike pseudovirus. How it is done: as §1
The target in assay [4] is SARS-CoV-2 Omicron BA.5 spike pseudovirus. As for the experimental part: as §1
Assay [5] has as its target SARS-CoV-2 Omicron BQ.1.1 spike pseudovirus. How it is done: as §1
Assay [6] concerns the target SARS-CoV-2 Omicron XBB spike pseudovirus. As for the experimental part:
as §1

Assay [7] has as its target SARS-CoV-2 early D614G spike pseudovirus. As for the experimental part: as §1

B1: BD56-1424 (protein)
chain 1: QLQLQESGPGLVKPSETLSLTCTVSGGSISSSRYYWGWIRQPPGKGLEWVGNFYYSGSTYYNPSLKSRVTISVDTSKNQFSLKVSSVTAADTAVYYCTRDAHGDFSWDYWGQGTLVTVSS
chain 2: QSVLTQSPSVSGAPGQRVNISCTGSSSNIGAGYDVHWYQQLPGAAPKLLIYGNSNRPSGVPDRFSGSKSGTSASLAITGLQAEDEADYFCQTYDTSLSGSGYVFGTGTKVTVL
For B1, the “pseudovirus neutralization IC50” value in assay [1], in assay [2], in assay [3], in assay [4], in assay [5] and in assay [6] was more than 10 µg/mL in each case. In addition, the “pseudovirus neutralization IC50” value in assay [7] was more than 10 µg/mL.

B2: BD56-1452 (protein)
chain 1: QVQLQESGPGLVRPSDTLSLTCSVSGGSISHYYWNWIRQSPGKGLEWIGYVFYSGSTNYNPSLWSRVTISVDTSKNQFSLNLRSVTAADTALYYCARDRGDRSGWPDALDIWGQGTMVTVSS
chain 2: DIQMTQSPPSLSASVGDRVTITCQASQDITNYLNWYQLKPGKAPKLLIYDASNLETGVPSRFSGRGSGTDFSFTISSLQPEDIATYYCQQYDNIPWTFGQGTKVEIK
As to B2, the “pseudovirus neutralization IC50” value was 0.223 µg/mL in assay [1]; 0.292 µg/mL in assay [2]; 0.149 µg/mL in assay [3]; 1.52 µg/mL in assay [4]; more than 10 µg/mL in assay [5]; more than 10 µg/mL in assay [6]. Besides, in assay [7], the “pseudovirus neutralization IC50” value was 0.0954 µg/mL.

B3: BD56-1430 (protein)
chain 1: EVQLVESGGGLVQPGGSLRLSCAASGLIVSSNYMSWVRQAPEKGLEWVSEIYAGGSTFHSGSVKGRFIISRDNSKNTVYLQMNSLRAEDSAVYYCVRDLKHDGMDVWGQGTTVTVSS
chain 2: DIQLTQSPSFLSASVGDRVTITCRATQGIGNSLAWYQQKPGKAPNLLIYAASSLQSGVPSRFSGSASGTEFTLTISSLQPEDFATYYCQQLNGYPSMCTFGQGTKLEIK
As for B3, the “pseudovirus neutralization IC50” value is 0.00609 µg/mL in assay [1]; 0.00728 µg/mL in assay [2]; more than 10 µg/mL in assay [3]; 0.631 µg/mL in assay [4]; more than 10 µg/mL in assay [5]; more than 10 µg/mL in assay [6]. For the same molecule, in assay [7], the “pseudovirus neutralization IC50” value was determined as 0.0247 µg/mL.

B4: BD56-1445 (protein)
chain 1: EVQLVESGGGLVQPGGSLRLSCAASGFTFRNYWMSWVRQAPGKGLEWVANIKLDGSEKYYVDSVKGRFTISRDNAKNSLFLQMNSLRADDTAVYYCAREPTYYSGFDYWGQGTLVTVSS
chain 2: KFMLTQPHSVSESPGKTVTISCTGSSGSIASNYVQWYQQRPGSAPTTVIYEDNERPSGVPDRFSGSIDSSSNSASLTISGLKTEDEADYYCQSYDGNNQRVFGGGTKLTVL
As for B4, the “pseudovirus neutralization IC50” value in assay [1], in assay [2], in assay [3], in assay [4], in assay [5] and in assay [6] was more than 10 µg/mL each time. Moreover, the “pseudovirus neutralization IC50” value in assay [7] stood at 0.549 µg/mL.

B5: BD56-1440 (protein)
chain 1: EVQLVESGGGLIQPGGSLKLSCAASGFTFSNYDMHWVRQTPGKGLEWVSVIGTAGDGYYPDSVKGRFTISRENAKNSLYLQMNSLRAGDTAVYYCARGRGGGYQEGPYFDFWGQGTLVTVSS
chain 2: DIQMTQSPSSLSASVGDRVTITCRASQTIRTYLNWYQQKPGKAPKLLIYAASTLHTGVPSRFSGSGSGTDFTLTISSLQPEDFATYYCQQSYSIPPLTFGGGTKVEIK
With B5, the “pseudovirus neutralization IC50” value in assay [1], in assay [2], in assay [3], in assay [4], in assay [5] and in assay [6] was more than 10 µg/mL throughout. Besides, the “pseudovirus neutralization IC50” value in assay [7] is more than 10 µg/mL.

B6: BD56-1431 (protein)
chain 1: QVHLVESGGGVVQPGRSLRLSCAASGFIFRDYGMHWVRQAPGKGLEWVAVIWYDGTNKYYADSVKGRFTISRDNSKNTLYLQIDSLRAEDTAVYYCARDYGVGATMDDYFDYWGQGTLVIVSS
chain 2: QSVLTQPPSASGAPGQRVSISCSGSNSNIGTNHIYWYQQLPGTAPKLLIYRNNQRPSGVPDRFSGSKSGTSASLAISGLRSEDEADYYCAGWDDRLGGWVFGGGTKVTVL
As for B6, the “pseudovirus neutralization IC50” value in assay [1] is 0.912 µg/mL; in assay [2], 1.22 µg/mL; in assay [3], 1.48 µg/mL; in assay [4] it was 1.31 µg/mL; in assay [5], 2.12 µg/mL; in assay [6], 2.04 µg/mL. The “pseudovirus neutralization IC50” value in assay [7] came out at 0.643 µg/mL.

B7: BD56-1433 (protein)
chain 1: EVQLVESGGGLVQPGGSLRLSCAASGFIFSSDDMHWVRQAPGKGLEWVSGIGTAGDTYYSDSVKGRFTISREDAKNSLYLQMNSLRAGDTAVYYCARGSDSGLHYYFDNWGQGTLVTVSS
chain 2: DVQMTQSPSSLSASIGDRVTITCRASQTITTYLNWYQQKAGKAPKLLIYAASSLQSGVPSRFSGSGSGTDFTLTISSLQPADFATYYCQQSYSAPPWTFGQGTKVEIK
As for B7, the “pseudovirus neutralization IC50” value in assay [1], in assay [2], in assay [3], in assay [4], in assay [5] and in assay [6] was more than 10 µg/mL in each case. In addition, the “pseudovirus neutralization IC50” value in assay [7] was more than 10 µg/mL.

B8: COV2-2628 (protein)
chain 1: EVQLVESGGGLVQPGRSLRLSCAASGFTFDDYAMHWVRQAPGKGLEWVSGISWNSGTIGYADSVKGRFIISRDNAKNSLYLQMNSLRPEDTALYYCAKDIIRQGEDGMDVWGQGTTVTVSS
chain 2: DIQMTQSPSSLSASVGDRVTITCRASQNIASYLNWYQQKPGKAPKLLIYAASSLQSGVPSRFSGSGSGTDFTLTISSLQPEEFATYYCHQSYFTPQTFGQGTKLEIK
As to B8, the “pseudovirus neutralization IC50” value in assay [1], in assay [2], in assay [3], in assay [4], in assay [5] and in assay [6] was more than 10 µg/mL each time. Also, in assay [7], the “pseudovirus neutralization IC50” value is more than 10 µg/mL.

B9: BD56-1434 (protein)
chain 1: QVQLVQSGAEVKKPGSSVKVSCKASGGTFSSYTISWVRQAPGQGLEWIGKIIPILGIADYAEQVQGRITITADTSTGTAYMDLSSLRSEDTAFYYCARERGYSDYGSAIYFDYWGQGTLVTVSS
chain 2: QSVLTQPPSVSGAPGQRVTISCTGTSSNIGAGYDVHWYQQVPGTAPKLLIYGNTNRPSGVPDRFSGSKSGTSASLAITGLQAEDEADYYCQSYDSSLSGSGVFGGGTKLTVL
With B9, the “pseudovirus neutralization IC50” value was found to be 0.0172 µg/mL in assay [1]; 0.0163 µg/mL in assay [2]; 0.0191 µg/mL in assay [3]; 0.557 µg/mL in assay [4]; 2.57 µg/mL in assay [5]; 2.25 µg/mL in assay [6]. Further, the “pseudovirus neutralization IC50” value in assay [7] came out at 0.214 µg/mL.

B10: BD56-1435 (protein)
chain 1: EVQLVESGGGLVKPGGSLRLSCAASGFSFNDAWMSWVRQAPGKGLEWVGRIKSKIDGGTTDYAAPVKDRFTISTDDSKNTLYLQMNSLKTEDTAMYYCTTGVDIVVRVYVDDAFDIWGQGTMVTVSS
chain 2: SSELTQDPAVSVALGQTVRITCQGDSLRSYYASWYQQKPRQAPVLVIYGENNRPSGIPDRFSGSSSGNTASLTITGAQAEDEADYYCNSRDSSGNHVVFGGGTKLTVL
Turning to B10, the “pseudovirus neutralization IC50” value in assay [1], in assay [2], in assay [3], in assay [4], in assay [5] and in assay [6] was more than 10 µg/mL in each case. Further, the “pseudovirus neutralization IC50” value in assay [7] is more than 10 µg/mL.

B11: BD56-1443 (protein)
chain 1: EVQLVESGGGLVQPGRSLRLSCAASGFTFDDYAMHWVRQGPGKGLEWVSGVSWNSGTIGYADSVKGRFIIIRDNAKNSLYLQMNSLTAEDTALYYCAKDIDYGDNASGGVHYWGQGTLVTVSS
chain 2: QSALTQPASVSGSPGQSITISCTGTNSDVGGYNYVSWYQQHPGKVPKLLIYGVNKRPSGVSNRFSGSKSGNTASLTISGLQAEDEADYYCSSYTTSSTYVFGTGTKVTVL
B11: the “pseudovirus neutralization IC50” value in assay [1] was 0.0847 µg/mL; in assay [2] it was 0.0806 µg/mL; in assay [3] it was 0.0515 µg/mL; in assay [4] it was 1.76 µg/mL; in assay [5], more than 10 µg/mL; in assay [6], 3.23 µg/mL. For the same molecule, the “pseudovirus neutralization IC50” value in assay [7] was found to be 0.088 µg/mL.

B12: BD56-1427 (protein)
chain 1: QVQLVESGGGVVQPGRSLRLSCAASGFTFSIYGMHWVRQAPGKGLEWVAVISHDGSNKYYTDSVRGRFTISRDNSKNTLYLQMNSLRVEDTAVYYCAKGSGYCSGGRCYPEGYFDYWAQGTLVTVSS
chain 2: SYVLTQPPSVSVAPGKTARITCGGNDIGSKNVHWYQQKPGQAPVLVVYDDSDRPSGIPERFSGSNSGNTATLIISRVEAGDEADYYCQVWDSSSNLYWVFGGGTKLTVL
As to B12, the “pseudovirus neutralization IC50” value in assay [1], in assay [2], in assay [3], in assay [4], in assay [5] and in assay [6] was more than 10 µg/mL in each case. In addition, the “pseudovirus neutralization IC50” value in assay [7] was more than 10 µg/mL.
